{
  "source": "paper PMC10971446",
  "about": "(Marine Drugs, 2024)",
  "tested_on": "ACh-responsive mouse DRG neurons (α3β4 and α6β4 nAChRs)",
  "experiment": "Constellation Pharmacology protocol one: ACh-induced calcium influx in DRG neurons",
  "details": "10 μM peptide, 1 mM ACh; of 220 ACh-responsive neurons, six trials; experiment-wide threshold",
  "data": [
    {"compound": "CC(C)C[C@@H]1NC(=O)[C@H](CCC(=O)O)NC(=O)[C@@H]2CCCN2C(=O)[C@H](Cc2c[nH]cn2)NC(=O)[C@H](CC(N)=O)NC(=O)[C@H](C(C)C)NC(=O)[C@H](CO)NC(=O)[C@@H]2CSSC[C@H](NC(=O)CNC(=O)[C@@H]3CCC(=O)N3)C(=O)N[C@@H](CSSC[C@@H](C(=O)N[C@@H](Cc3c[nH]c4ccccc34)C(=O)O)NC1=O)C(=O)N[C@@H](CO)C(=O)N[C@@H](Cc1c[nH]cn1)C(=O)N1CCC[C@H]1C(=O)N[C@@H](C)C(=O)N2", "note": "[αCtx-AtIA]", "values": [
      {"measurement": "cells with significant block for both αCtx-PeIA and αCtx-AtIA", "value": 104, "unit": "cells"},
      {"measurement": "cells with significant block with αCtx-PeIA and non-significant block with αCtx-AtIA", "value": 101, "unit": "cells"}
    ]}
  ]
}
